A mixed list of measured activities; the numbers were collected in NIAID ChemDB.

Shared fields: tests in culture; organism: Candida albicans

A number after MIC or MFC names an inhibition level or a share of isolates. Conditions beyond the fields shown may differ between rows. Two numbers with a dash give a range or band. Blank or dashed fields: not listed here.

compound	endpoint	strain	method	value
Cc1nnsc1C(=O)NNC(=S)Nc1ccc(F)cc1	MIC	ATCC 90028	agar	400 µg/mL
C=C(CF)CN1C[C@H](OC[C@@]23C[C@@H]4[C@H](C)CC[C@H]4[C@@]4(C=O)C[C@@H]2CC(C(C)C)[C@@]34C(=O)O)O[C@H](C)C1	MIC	CL-236		0.002 µg/mL
CNc1ccc(C(=O)CC(O)CCC(C)C2OC(=O)CC(O)CC(=O)CC(O)CC(O)CC(O)CC(O)CC3(O)CC(O)C(C(=O)N4CCN(C)CC4)C(CC(O[C@@H]4O[C@H](C)[C@@H](O)[C@H](NC(=O)CCN5CCCCC5)[C@@H]4O)/C=C/C=C/C=C/C=C\C=C/C=C/C=C/C2C)O3)cc1	MIC	200		0.03 µg/mL
CCCCOc1ccc(C(=O)NN)c(O)c1	MIC	Clinical isolates		125–250 µg/mL
C[C@H]1[C@H](O)[C@@H](C)/C=C/C=C/C=C/C=C/C=C/C=C/C=C/[C@H](O[C@@H]2O[C@H](C)[C@@H](O)[C@H](N)[C@@H]2O)C[C@@H]2O[C@](O)(C[C@@H](O)C[C@@H](O)CC[C@H](O)[C@@H](O)C[C@@H](O)CC(=O)O[C@H]1C)C[C@H](O)[C@H]2C(=O)O	MIC80	TIMM3317 (azole-resistant)		0.13 µg/mL
O=C(O)c1ccc(OCc2ccccc2)cc1O	MIC	Clinical isolates		125–250 µg/mL
COc1ccc(CN2C[C@H](OC[C@@]34C[C@@H]5[C@H](C)CC[C@H]5[C@@]5(C=O)C[C@@H]3CC(C(C)C)[C@@]45C(=O)O)O[C@H](C)C2)cc1	MIC50	16 isolates		≤0.001 µg/mL
CCCCCCCCOc1ccc(C(=O)O)c(OC)c1	MIC	Clinical isolates		125–250 µg/mL
COc1ccccc1NC(=S)NNC(=O)c1cc2ccccc2cn1	MIC	ATCC 10231	agar	25 µg/mL
CO[C@H]1C[C@@H]2CC[C@@H](C)[C@@](O)(O2)C(=O)C(=O)N2CCCC[C@H]2C(=O)O[C@H]([C@H](C)C[C@@H]2CC[C@@H](C(=O)ON3CCOCC3)[C@H](OC)C2)CC(=O)[C@H](C)/C=C(\C)[C@@H](O)[C@@H](OC)C(=O)[C@H](C)C[C@H](C)CCCC/C=C/1C	MIC	579A		>100 µg/mL
CCC(C)CC(C)CCCCCCCCC(=O)N[C@H]1C[C@@H](O)[C@H](NCCN)NC(=O)[C@@H]2[C@@H](O)CCN2C(=O)[C@H]([C@H](O)CCN)NC(=O)[C@H]([C@H](O)[C@@H](O)c2ccc(O)cc2)NC(=O)[C@@H]2C[C@@H](O)CN2C(=O)[C@H]([C@@H](C)O)NC1=O	MIC90	10 strains (fluconazole-resistant)		1 µg/mL
CNc1ccc(C(=O)CC(O)CCC(C)C2OC(=O)CC(O)CC(=O)CC(O)CC(O)CC(O)CC(O)CC3(O)CC(O)C(C(=O)N4CCN(CCO)CC4)C(CC(O[C@@H]4O[C@H](C)[C@@H](O)[C@H](NC(=O)CN(C)C)[C@@H]4O)/C=C/C=C/C=C/C=C\C=C/C=C/C=C/C2C)O3)cc1	MIC	73		0.0075 µg/mL
CCC(C)n1ncn(-c2ccc(N3CCN(c4ccc(OC[C@H]5CO[C@](Cn6cncn6)(c6ccc(Cl)cc6Cl)O5)cc4)CC3)cc2)c1=O	MIC90	17 isolates fluconazole-susceptible		0.12 µg/mL
CCC(C)n1ncn(-c2ccc(N3CCN(c4ccc(OC[C@H]5CO[C@](Cn6cncn6)(c6ccc(Cl)cc6Cl)O5)cc4)CC3)cc2)c1=O	MIC90	10 isolates azole-resistant		0.8 µg/mL
NC(N)=NCCCCCCCNCCCCCCCCCNC(N)=NCC1CC1	MIC50	15T		20 µM
CCC(C)CC(C)CCCCCCCCC(=O)N[C@H]1C[C@@H](O)[C@H](NCCN)NC(=O)[C@@H]2[C@@H](O)CCN2C(=O)[C@H]([C@H](O)CCN)NC(=O)[C@H]([C@H](O)[C@@H](O)c2ccc(O)cc2)NC(=O)[C@@H]2C[C@@H](O)CN2C(=O)[C@H]([C@@H](C)O)NC1=O	MIC90	40 isolates azole-susceptible		0.4 µg/mL
NC(=NCc1ccccc1)NCCCCCCCN1CCCCCCCCN=C(N)NC1=O	MIC50	ATCC 60193		2.5 µM
CN(CCCC#CC(C)(C)C)c1cccc2c1CCC(=O)N2	MIC	Clinical isolate 11		31.25 µg/mL
CO[C@H]1C[C@@H]2CC[C@@H](C)[C@@](O)(O2)C(=O)C(=O)N2CCCC[C@H]2C(=O)O[C@H]([C@H](C)C[C@@H]2CC[C@@H](C(=O)ON(C)C)[C@H](OC)C2)CC(=O)[C@H](C)/C=C(\C)[C@@H](O)[C@@H](OC)C(=O)[C@H](C)C[C@H](C)CCCC/C=C/1C	MIC	579A		50 µg/mL
CC(C)N=C(N)c1ccc2nc(-c3ccc4c(c3)Cc3cc(-c5nc6ccc(C(N)=NC(C)C)cc6[nH]5)ccc3-4)[nH]c2c1	MIC	Isolate CA783		1.56 µg/mL
CCCCCCOc1cc(O)cc(C(=O)O)c1	MIC	Clinical isolates		125–250 µg/mL
N=C(N)N(CCCCCCCCCN=C(N)N)CCCCCCCN=C(N)N	MIC50	53T		20 µM
C=C(C)CN1C[C@H](OC[C@@]23C[C@@H]4[C@H](C)CC[C@H]4[C@@]4(C=O)C[C@@H]2CC(C(C)C)[C@@]34C(=O)O)O[C@H](C)C1	MIC50	16 isolates		0.004 µg/mL
NC(N)=NCCCCCCCCCNCCCCCCCN=C(N)N	MIC50	ATCC 60193		80 µM
CNc1ccc(C(=O)CC(O)CCC(C)C2OC(=O)CC(O)CC(=O)CC(O)CC(O)CC(O)CC(O)CC3(O)CC(O)C(C(=O)N4CCN(CCO)CC4)C(CC(O[C@@H]4O[C@H](C)[C@@H](O)[C@H](NC(=O)CN5CCN(CCO)CC5)[C@@H]4O)/C=C/C=C/C=C/C=C\C=C/C=C/C=C/C2C)O3)cc1	MIC	200		0.06 µg/mL
OC(CN1CCN(c2ccc(OCc3ccncc3)cc2)CC1)(Cn1cncn1)c1ccc(F)cc1F	MIC80	304356		2 µg/mL
Cc1c(Sc2ccccc2)[n+](=O)c2cc(C(F)(F)F)ccc2n1[O-]	MIC	Clinical isolate 13		15.6 µg/mL
C[C@@H](c1ncncc1F)[C@](O)(Cn1cncn1)c1ccc(F)cc1F	MIC	ATCC 90028	broth dilution	1 µg/mL
O=C(NNC(=S)Nc1ccc(F)cc1F)c1cc2ccccc2[nH]1	MIC	ATCC 90028	agar	400 µg/mL
Cc1c(Cl)[n+](=O)c2cc(Cl)ccc2n1[O-]	MIC	Clinical isolate 24		15.6 µg/mL
CNc1ccc(C(=O)CC(O)CCC(C)C2OC(=O)CC(O)CC(=O)CC(O)CC(O)CC(O)CC(O)CC3(O)CC(O)C(C(=O)N4CCN(C)CC4)C(CC(O[C@@H]4O[C@H](C)[C@@H](O)[C@H](NC(=O)CN5CCN(C)CC5)[C@@H]4O)/C=C/C=C/C=C/C=C\C=C/C=C/C=C/C2C)O3)cc1	MIC	73		0.015 µg/mL
CO[C@H]1C[C@@H]2CC[C@@H](C)[C@@](O)(O2)C(=O)C(=O)N2CCCC[C@H]2C(=O)O[C@H]([C@H](C)C[C@@H]2CC[C@@H](C(=O)ON3CCCCC3)[C@H](OC)C2)CC(=O)[C@H](C)/C=C(\C)[C@@H](O)[C@@H](OC)C(=O)[C@H](C)C[C@H](C)CCCC/C=C/1C	MIC	38247		>100 µg/mL
C[C@@H](c1ncncc1F)[C@](O)(Cn1cncn1)c1ccc(F)cc1F	MIC	OY-12-99 (FLU-R)		32 µg/mL
C#CCNC(N)=NCCCCCCCN1CCCCCCCCN=C(N)NC1=O	MIC50	ATCC 60193		2.5 µM
CNc1ccc(C(=O)CC(O)CCC(C)C2OC(=O)CC(O)CC(=O)CC(O)CC(O)CC(O)CC(O)CC3(O)CC(O)C(C(=O)N4CCN(C)CC4)C(CC(O[C@@H]4O[C@H](C)[C@@H](O)[C@H](NC(=O)CN(C)C)[C@@H]4O)/C=C/C=C/C=C/C=C\C=C/C=C/C=C/C2C)O3)cc1	MIC	200		0.015 µg/mL
CCOc1cc2c(cc1F)n([O-])c(C)c(Cl)[n+]2=O	MIC	Clinical isolate 12		62.5 µg/mL
CNc1ccc(C(=O)CC(O)CCC(C)C2OC(=O)CC(O)CC(=O)CC(O)CC(O)CC(O)CC(O)CC3(O)CC(O)C(C(=O)N4CCN(CCO)CC4)C(CC(O[C@@H]4O[C@H](C)[C@@H](O)[C@H](NC(=O)CCN5CCCCC5)[C@@H]4O)/C=C/C=C/C=C/C=C\C=C/C=C/C=C/C2C)O3)cc1	MIC	200		0.06 µg/mL
O=C(NNC(=S)Nc1ccc(F)cc1)c1cc2ccccc2[nH]1	MIC	ATCC 90028	agar	>400 µg/mL
CO[C@H]1C[C@@H]2CC[C@@H](C)[C@@](O)(O2)C(=O)C(=O)N2CCCC[C@H]2C(=O)O[C@H]([C@H](C)C[C@@H]2CC[C@H](c3nn[nH]n3)[C@H](OC)C2)CC(=O)[C@H](C)/C=C(\C)[C@@H](O)[C@@H](OC)C(=O)[C@H](C)C[C@H](C)CCCC/C=C/1C	MIC	38247		>100 µg/mL

Repeating the final 3 entries:

{"compound": "CNc1ccc(C(=O)CC(O)CCC(C)C2OC(=O)CC(O)CC(=O)CC(O)CC(O)CC(O)CC(O)CC3(O)CC(O)C(C(=O)N4CCN(CCO)CC4)C(CC(O[C@@H]4O[C@H](C)[C@@H](O)[C@H](NC(=O)CCN5CCCCC5)[C@@H]4O)/C=C/C=C/C=C/C=C\\C=C/C=C/C=C/C2C)O3)cc1", "endpoint": "MIC", "strain": "200", "value": "0.06 µg/mL"}
{"compound": "O=C(NNC(=S)Nc1ccc(F)cc1)c1cc2ccccc2[nH]1", "endpoint": "MIC", "strain": "ATCC 90028", "method": "agar", "value": ">400 µg/mL"}
{"compound": "CO[C@H]1C[C@@H]2CC[C@@H](C)[C@@](O)(O2)C(=O)C(=O)N2CCCC[C@H]2C(=O)O[C@H]([C@H](C)C[C@@H]2CC[C@H](c3nn[nH]n3)[C@H](OC)C2)CC(=O)[C@H](C)/C=C(\\C)[C@@H](O)[C@@H](OC)C(=O)[C@H](C)C[C@H](C)CCCC/C=C/1C", "endpoint": "MIC", "strain": "38247", "value": ">100 µg/mL"}